Compound potency records, mixed from different reports. Data source: NIAID ChemDB in PubChem.

All rows: enzyme or target tests; species: Hepatitis C virus; protein: NS5B polymerase

Conditions beyond the fields shown may differ between rows.

O=C(O)c1ccc2c(c1)nc(-c1ccc(OCc3cc(C(=O)N4CCC(O)CC4)ccc3-c3ccc(Cl)cc3)cc1F)n2C1CCCCC1 ; measure: IC50 ; value: 0.28 µM
O=C1/C(=C\c2ccc(Cl)cc2Cl)SC(=S)N1NS(=O)(=O)c1ccccc1 ; measure: IC50 ; value: ≤30 µM
COC(=O)[C@H](Cc1c[nH]c2ccc(O)cc12)NC(=O)c1ccc2c(c1)nc(-c1ccccn1)n2C1CCCCC1 ; measure: IC50 ; value: <1 µM
O=C(NN1C(=O)/C(=C\c2ccc(Cl)cc2)SC1=S)c1ccccc1 ; measure: IC50 ; value: >30 µM
O=C1/C(=C\c2ccc(Br)cc2)SC(=S)N1NS(=O)(=O)c1ccccc1 ; measure: IC50 ; value: 0.44 µM
NN1C(=O)/C(=C\c2ccccc2)SC1=S ; measure: IC50 ; value: >30 µM
C[C@@]1(O)[C@H](O)[C@@H](CO)O[C@H]1n1ccc2c(N)nc(N)nc21 ; measure: IC50 ; value: <100 µM
CN1C(=O)[C@]23CC4=CC=C[C@H](O)[C@H]4N2C(=O)[C@@]1(CO)SS3 ; measure: Ki ; value: 230 µM
O=C(O)COc1ccc2[nH]cc(CC(NC(=O)c3ccc4c(c3)nc(-c3ccoc3)n4C3CCCCC3)C(=O)O)c2c1 ; measure: IC50 ; value: <1 µM
Cc1ccc(C(=O)N2CCOCC2)c(Nc2ccc3cn[nH]c3c2)n1 ; measure: IC50 ; value: <0.1 µg/mL
C[C@@]1(O)[C@H](O)[C@@H](CO)O[C@H]1n1ccc2c(=O)[nH]c(N)nc21 ; measure: IC50 ; value: <100 µM
CN(C)CCCNC(=O)COc1ccc(-c2nc3cc(C(=O)O)ccc3n2C2CCCCC2)cc1 ; measure: IC50 ; value: 10–25 µM
O=C1/C(=C\c2ccc(SC(F)(F)F)cc2)SC(=S)N1NS(=O)(=O)c1ccccc1 ; measure: IC50 ; value: ≤30 µM
O=C(O)c1cc2nc(-c3ccoc3)c(C3CCCCC3)c(=O)n2[nH]1 ; measure: IC50 ; value: <1 µM
O=C(O)COc1ccc(C[C@@H](NC(=O)Cc2ccc3c(c2)nc(-c2ccccn2)n3C2CCCCC2)C(=O)O)cc1 ; measure: IC50 ; value: 5–10 µM
CCC[C@]1(CC(=O)O)OCCc2c1[nH]c1c(Cl)ccc(Cl)c21 ; measure: IC50 ; value: 0.06 µM
C[C@@]1(O)[C@H](O)[C@@H](CO)O[C@H]1n1ccc2c(N)ncnc21 ; measure: IC50 ; value: <100 µM
NN1C(=O)/C(=C/c2ccc([N+](=O)[O-])cc2)SC1=S ; measure: IC50 ; value: 1000 µM
C[C@@]1(O)[C@H](O)[C@@H](CO)O[C@H]1n1cnc2c(N)ncnc21 ; measure: IC50 ; value: 1.9 µM
CC1CCC(C(=O)N(c2cc(-c3ccccc3)sc2C(=O)O)C(C)C)CC1 ; measure: IC50 ; value: 1.5 µM
C/C=C/C/C=C/CCC(=O)[C@H]1O[C@H]1C(N)=O ; measure: IC50 ; value: 500 µM
N#CCCCOc1ccccc1/C(O)=C/C(=O)C(=O)O ; measure: IC50 ; value: 0.4 µM
COC(=O)[C@H](C)NP(=O)(OC[C@H]1O[C@@H](n2ccc3c(N)ncnc32)[C@](C)(O)[C@@H]1O)Oc1ccccc1 ; measure: IC50 ; value: <100 µM
O=C(O)c1ccc2c(c1)nc(-c1ccoc1)n2C1CCCCC1 ; measure: IC50 ; value: 1.6 µM
O=C(N[C@@H](Cc1cc2ccccc2[nH]1)C(=O)O)c1ccc2c(c1)nc(-c1ccoc1)n2C1CCCCC1 ; measure: IC50 ; value: 1–5 µM

For reference, 3 entries again:

smiles | measure | value
C[C@@]1(O)[C@H](O)[C@@H](CO)O[C@H]1n1ccc2c(=O)[nH]c(N)nc21 | IC50 | <100 µM
O=C1/C(=C\c2ccc(SC(F)(F)F)cc2)SC(=S)N1NS(=O)(=O)c1ccccc1 | IC50 | ≤30 µM
O=C1/C(=C\c2ccc(Cl)cc2Cl)SC(=S)N1NS(=O)(=O)c1ccccc1 | IC50 | ≤30 µM

Two numbers with a dash give a range or band. ICn: concentration for n% inhibition.